Results taken from article PMC6475865.

Legend:
[1] = test system: Integrase IN_CRF consensus; experiment: fluorescence polarization kinetics; conditions: 7.5 mM Mg2+, 100 nM IN, 10 nM DNA, kon 0.69 ± 0.09 min-1; 20 mM HEPES pH 7.2, 10 mM DTT, 7.5 mM MgCl2, 25 C; DRaCALA: 5 nM DNA, 0-500 nM IN, 20 min; recombinant protein; label: 5'-fluorescein on U5B
[2] = test system: Integrase IN_A (HIV-1 subtype A strain FSU-A); experiment: fluorescence polarization kinetics; conditions: 7.5 mM Mg2+, 100 nM IN, 10 nM DNA, kon 0.24 ± 0.02 min-1; 20 mM HEPES pH 7.2, 10 mM DTT, 7.5 mM MgCl2, 25 C; DRaCALA: 5 nM DNA, 0-500 nM IN, 20 min; recombinant protein; label: 5'-fluorescein on U5B

GTGTGGAAAATCTCTAGCAGT (double strand) [5'-Fl-U5B/U5A duplex]
binding result [1]: binds | binding result [2]: binds

The exact form of at least one protein or probe is not confirmed.
